Reference: PubChem BioAssay AID1224833 (University of Georgia, 2016)
Aim: 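Human genes whose knock-down alters rotavirus replication in monkey cells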 (primary screen). System: monkey MA104 kidney cells. Reagents: siRNA pool against human genes, 50 nM. Timing: 48 h knock-down before infection; read 24 h after infection. Conditions: infection with rotavirus strain RV3 two days after transfection; infectious dose for this stage not given. Read-out: 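Rotavirus antigen per well by fluorescent immunoassay, normalised to non-targeting control wells on each plate and given as a standard z-score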. Reading the numbers: z-score vs non-targeting control: higher = more rotavirus replication than with non-targeting control. Call rule: In these data the active calls have z-score vs non-targeting control at about -1 or lower, or at about 1 or higher. Meaning of the calls: active = z-score beyond 1 either way; inactive = z-score within 1 of zero.
In all, the deposit lists about 12,000 reagents; below is a part drawn at random. About 5,600 of them (46%) count as active. 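Active calls cover z-scores past 1 in both directions, so they include lowered as well as raised rotavirus replication.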

The first 15 entries, to show the layout:
| target gene | z-score vs non-targeting control | Outcome |
| --- | --- | --- |
| ATG9A (autophagy related 9A) | 0.409 | inactive |
| PALMD (palmdelphin) | -0.768 | inactive |
| NTF4 (neurotrophin 4) | -0.669 | inactive |
| ZSCAN26 (zinc finger and SCAN domain containing 26) | 0.965 | inactive |
| COPS2 (COP9 signalosome subunit 2) | -1.83 | active |
| VTN (vitronectin) | 0.744 | inactive |
| NRXN3 (neurexin 3) | 0.121 | inactive |
| IFNL3 (interferon lambda 3) | -3.06 | active |
| PRDM12 (PR/SET domain 12) | 2.13 | active |
| PDAP1 (PDGFA associated protein 1) | 0.711 | inactive |
| PPA1 (inorganic pyrophosphatase 1) | 1.64 | active |
| NUP85 (nucleoporin 85) | 0.682 | inactive |
| LOX (lysyl oxidase) | -3.1 | active |
| CCL3L3 (C-C motif chemokine ligand 3 like 3) | -0.0497 | inactive |
| ANGPT2 (angiopoietin 2) | -1.78 | active |

Results, repeating the preview:
| target gene | z-score vs non-targeting control | Outcome |
| --- | --- | --- |
| ATG9A (autophagy related 9A) | 0.409 | inactive |
| PALMD (palmdelphin) | -0.768 | inactive |
| NTF4 (neurotrophin 4) | -0.669 | inactive |
| ZSCAN26 (zinc finger and SCAN domain containing 26) | 0.965 | inactive |
| COPS2 (COP9 signalosome subunit 2) | -1.83 | active |
| VTN (vitronectin) | 0.744 | inactive |
| NRXN3 (neurexin 3) | 0.121 | inactive |
| IFNL3 (interferon lambda 3) | -3.06 | active |
| PRDM12 (PR/SET domain 12) | 2.13 | active |
| PDAP1 (PDGFA associated protein 1) | 0.711 | inactive |
| PPA1 (inorganic pyrophosphatase 1) | 1.64 | active |
| NUP85 (nucleoporin 85) | 0.682 | inactive |
| LOX (lysyl oxidase) | -3.1 | active |
| CCL3L3 (C-C motif chemokine ligand 3 like 3) | -0.0497 | inactive |
| ANGPT2 (angiopoietin 2) | -1.78 | active |
| PCDH8 (protocadherin 8) | -0.757 | inactive |
| DENND6B (DENN domain containing 6B) | 1.14 | active |
| ABCC4 (ATP binding cassette subfamily C member 4 (PEL blood group)) | 0.885 | inactive |
| OR10J5 (olfactory receptor family 10 subfamily J member 5) | -1.72 | active |
| SUB1 (SUB1 regulator of transcription) | -1.79 | active |
| TP53TG3 (TP53 target 3) | -0.755 | inactive |
| CHIT1 (chitinase 1) | 0.536 | inactive |
| APOOL (apolipoprotein O like) | -0.352 | inactive |
| NPHP3 (nephrocystin 3) | -1.38 | active |
| COMMD10 (COMM domain containing 10) | -1.33 | active |
| CMTR1 (cap methyltransferase 1) | -0.135 | inactive |
| EPG5 (ectopic P-granules 5 autophagy tethering factor) | 0.513 | inactive |
| OR51B2 (olfactory receptor family 51 subfamily B member 2) | 0.0675 | inactive |
| SYNGR4 (synaptogyrin 4) | -0.724 | inactive |
| DARS2 (aspartyl-tRNA synthetase 2, mitochondrial) | 1 | active |
| SEC61B (SEC61 translocon subunit beta) | -1.13 | active |
| DNAJA3 (DnaJ heat shock protein family (Hsp40) member A3) | 0.769 | inactive |
| LIPT1 (lipoyltransferase 1) | -1.34 | active |
| XRCC5 (X-ray repair cross complementing 5) | -0.928 | inactive |
| ZNF607 (zinc finger protein 607) | -1.23 | active |
| LRRC19 (leucine rich repeat containing 19) | -0.757 | inactive |
| GPER1 (G protein-coupled estrogen receptor 1) | 0.951 | inactive |
| BCAS1 (brain enriched myelin associated protein 1) | -0.0986 | inactive |
| STARD6 (StAR related lipid transfer domain containing 6) | -0.793 | inactive |
| ACO1 (aconitase 1) | -1.32 | active |
| SELENOP (selenoprotein P) | -2.04 | active |
| POLD2 (DNA polymerase delta 2, accessory subunit) | -0.704 | inactive |
| CDC45 (cell division cycle 45) | -0.281 | inactive |
| H1-8 (H1.8 linker histone) | -1.13 | active |
| KRT6A (keratin 6A) | -0.0753 | inactive |
| ZNF100 (zinc finger protein 100) | -0.15 | inactive |
| NFXL1 (nuclear transcription factor, X-box binding like 1) | 0.848 | inactive |
| IDH3G | -0.986 | inactive |
| CHST7 (carbohydrate sulfotransferase 7) | -2.17 | active |
| KBTBD6 (kelch repeat and BTB domain containing 6) | -1.32 | active |
| SFXN4 (sideroflexin 4) | -1.35 | active |
| ZNF136 (zinc finger protein 136) | 0.723 | inactive |
| CDH4 (cadherin 4) | -1.15 | active |
| FEM1A (fem-1 homolog A) | 0.665 | inactive |
| PRSS3 (serine protease 3) | 0.542 | inactive |
| ABCA4 (ATP binding cassette subfamily A member 4) | -1.41 | active |
| MBOAT1 (membrane bound glycerophospholipid O-acyltransferase 1) | -1.29 | active |
| ALMS1 (ALMS1 centrosome and basal body associated protein) | -0.73 | inactive |
| OR3A3 (olfactory receptor family 3 subfamily A member 3) | -2.37 | active |
| TMCO5A (transmembrane and coiled-coil domains 5A) | 0.714 | inactive |
| ATAD3A (ATPase family AAA domain containing 3A) | -1.39 | active |
| DNAJC22 (DnaJ heat shock protein family (Hsp40) member C22) | -1.01 | active |
| MRPS15 (mitochondrial ribosomal protein S15) | -0.694 | inactive |
| MINAR1 (membrane integral NOTCH2 associated receptor 1) | -1.21 | active |
| RAD17 (RAD17 checkpoint clamp loader component) | -1.04 | active |
| CD58 (CD58 molecule) | -0.413 | inactive |
| CBFA2T2 (CBFA2/RUNX1 partner transcriptional co-repressor 2) | -1.98 | active |
| BRINP3 (BMP/retinoic acid inducible neural specific 3) | -0.448 | inactive |
| PGLYRP3 (peptidoglycan recognition protein 3) | 1.95 | active |
| LRRC63 (leucine rich repeat containing 63) | 1.48 | active |
| RPL6 (ribosomal protein L6) | -0.786 | inactive |
| RASGRF2 (Ras protein specific guanine nucleotide releasing factor 2) | 0.0327 | inactive |
| COPS4 (COP9 signalosome subunit 4) | -0.0643 | inactive |
| HOXB13 (homeobox B13) | -0.748 | inactive |
| CD1A (CD1a molecule) | -0.109 | inactive |
| PCDHGB4 (protocadherin gamma subfamily B, 4) | 0.928 | inactive |
| CLLU1 (chronic lymphocytic leukemia up-regulated 1) | 0.0097 | inactive |
| CTBP1 (C-terminal binding protein 1) | 2.23 | active |
| CRK (CRK proto-oncogene, adaptor protein) | 0.744 | inactive |
| FAM161B (FAM161 centrosomal protein B) | 0.0732 | inactive |
| SUSD3 (sushi domain containing 3) | -0.33 | inactive |
| LMBRD2 (LMBR1 domain containing 2) | -0.6 | inactive |
| ETHE1 (ETHE1 persulfide dioxygenase) | -0.19 | inactive |
| BTN2A1 (butyrophilin subfamily 2 member A1) | -1.33 | active |
| RAD23A (RAD23 nucleotide excision repair protein A) | -2.04 | active |
| PDGFC (platelet derived growth factor C) | 0.376 | inactive |
| NAT8B (N-acetyltransferase 8B (putative, gene/pseudogene)) | -1.93 | active |
| NUDC (nuclear distribution C, dynein complex regulator) | -0.954 | inactive |
| PCDHB2 (protocadherin beta 2) | -2.42 | active |
| SMIM29 (small integral membrane protein 29) | 1.06 | active |
| ZNF625 (zinc finger protein 625) | -1.81 | active |
| SLC44A3 | -2.96 | active |
| SLC30A10 | 0.753 | inactive |
| CTNS (cystinosin, lysosomal cystine transporter) | -0.528 | inactive |
| PHC3 (polyhomeotic homolog 3) | 1.29 | active |
| KRT79 (keratin 79) | 0.667 | inactive |
| EFHC1 (EF-hand domain containing 1) | 1.5 | active |
| PSMA4 (proteasome 20S subunit alpha 4) | 2.16 | active |
| GLP2R (glucagon like peptide 2 receptor) | 1.11 | active |
| SYT5 (synaptotagmin 5) | -1.51 | active |
| EIF4A2 (eukaryotic translation initiation factor 4A2) | 0.936 | inactive |
| GSC (goosecoid homeobox) | 0.112 | inactive |
| ZNF74 (zinc finger protein 74) | -0.75 | inactive |
| TAFA2 (TAFA chemokine like family member 2) | 0.955 | inactive |
| ATAD3B (ATPase family AAA domain containing 3B) | -0.0267 | inactive |
| MBIP (MAP3K12 binding inhibitory protein 1) | 0.536 | inactive |
| C12orf76 (chromosome 12 open reading frame 76) | -1.09 | active |
| LIN54 (lin-54 DREAM MuvB core complex component) | 1.49 | active |
| RASGEF1B (RasGEF domain family member 1B) | -1.28 | active |
| DMTF1 (cyclin D binding myb like transcription factor 1) | -3.3 | active |
| NPFFR2 (neuropeptide FF receptor 2) | -1.97 | active |
| CHD9 (chromodomain helicase DNA binding protein 9) | -0.627 | inactive |
| ZIC4 (Zic family zinc finger 4) | 0.191 | inactive |
| CIART (circadian associated repressor of transcription) | -1.36 | active |
| RBSN (rabenosyn, RAB effector) | -0.543 | inactive |
| FAM149A (family with sequence similarity 149 member A) | -1.14 | active |
| MBD2 (methyl-CpG binding domain protein 2) | -0.791 | inactive |
| SNRNP40 (small nuclear ribonucleoprotein U5 subunit 40) | 3.33 | active |
| OR4F5 (olfactory receptor family 4 subfamily F member 5) | -0.155 | inactive |
| SUGP1 (SURP and G-patch domain containing 1) | -1.47 | active |
| DLGAP3 (DLG associated protein 3) | 0.942 | inactive |
| ANXA2 (annexin A2) | -2.34 | active |
| HDGFL1 (HDGF like 1) | -0.98 | inactive |
| MANEA (mannosidase endo-alpha) | -2.04 | active |
| ZNF446 (zinc finger protein 446) | -1.71 | active |
| KLHL6 (kelch like family member 6) | 1.11 | active |
| DHX57 (DExH-box helicase 57) | -0.943 | inactive |
| CRACR2B (calcium release activated channel regulator 2B) | -1.78 | active |
| STAG1 (STAG1 cohesin complex component) | -1.28 | active |
| TCTN1 (tectonic family member 1) | -0.745 | inactive |
| SPRR1B (small proline rich protein 1B) | -0.263 | inactive |
| CMYA5 (cardiomyopathy associated 5) | -0.183 | inactive |
| SLC7A6 | -0.703 | inactive |
| EID2 (EP300 interacting inhibitor of differentiation 2) | 1.16 | active |
| TAS2R43 (taste 2 receptor member 43) | -0.166 | inactive |
| CD55 (CD55 molecule (Cromer blood group)) | -1.05 | active |
| KIF27 (kinesin family member 27) | 0.822 | inactive |
| OR5B21 (olfactory receptor family 5 subfamily B member 21) | 1.06 | active |
| BORA (BORA aurora kinase A activator) | -0.769 | inactive |
| UNC80 (unc-80 subunit of NALCN channel complex) | 0.0728 | inactive |
